Pooled drug test results. Numbers come from NIAID ChemDB, via PubChem.

Shared fields: whole-cell or culture tests; organism: Human cytomegalovirus

Conditions beyond the fields shown may differ between rows. a–b is a range or a potency band. ECn: concentration that inhibits the pathogen or its effect by n%. An empty or dashed field is not shown.

structure	read by	cells	strain or isolate	measure	value
N#CC1C(c2ccccc2)Nc2ccccc2S1(=O)=O	cytopathic effect	HEL	AD169	EC50	28 µg/mL
O=C(NCc1ccc(Cl)cc1)c1c[nH]c2c(F)cccc2c1=O	plaque count	-	ADI	EC50	19 µM
O=C(NCc1ccc(Cl)cc1)c1c[nH]c2c(F)cccc2c1=O	plaque count	-	759rD100	EC90	25.4 µM
COC(C)c1cn([C@H]2C[C@H](O)[C@@H](CO)O2)c(=O)[nH]c1=O	cytopathic effect	HFF	AD169	EC50	0.9 µM
CCCCCCCC#Cc1c[nH]c(=O)[nH]c1=O	cytopathic effect	HEL	DAVIS	EC50	>80 µM
N#CC1C(c2ccc(Cl)cc2)Nc2ccccc2S1(=O)=O	cytopathic effect	HEL	DER530 (GCV CDV-resistant)	EC50	5.6 µg/mL
CO[C@@H]1CCN(c2nc(C)c([N+](=O)[O-])c(-n3ccnc3)n2)C1	-	-	-	EC50	0.28 µM
O=c1[nH]c(=O)n([C@@H]2C[C@H](CO)C[C@H]2CO)cc1I	-	HEL	DAVIS	EC50	>100 µg/mL
Nc1ccn(C[C@@H](CO)OCP(=O)(O)O)c(=O)n1	plaque count	HEL	DER648 (ganciclovir cidofovir-resistant)	EC50	6.34 µM
CC(N=[N+]=[N-])c1cn([C@H]2C[C@H](O)[C@@H](CO)O2)c(=O)[nH]c1=O	cytopathic effect	HFF	AD169	EC50	>125 µM
Nc1ccn(COC(CO)CO)c(=O)n1	plaque count	HFF	AD169	EC50	1.9–14 µM
Cc1ccc(S(=O)(=O)n2cc(I)c(=O)[nH]c2=O)cc1	cytopathic effect	HEL	AD169	EC50	>80 µM
CCCCN1C(=O)c2ccccc2N(CCCc2ccccc2)S1(=O)=O	plaque count	MRC-5	AD169	EC50	2.3 µM
COc1ccc(Oc2ccc(NC3CCCCCC3)cc2)cc1	plaque count	-	AD169	EC50	30.5 µM
O=C1c2ccccc2N(Cc2ccc(Cl)cc2)S(=O)(=O)N1CC1CCCCC1	plaque count	MRC-5	AD169	EC50	5.9 µM
O=C(NCCc1ccccc1)C1=Cc2ccncc2CC1	plaque count	MRC-5	AD169	EC50	8.8 µM
Nc1ncc2c(ncn2COC(CO)CO)n1	cytopathic effect	-	DAVIS	EC50	0.02 µg/mL
COC(=O)[C@H](Cc1ccccc1)Nc1nc2ccc(NC(=O)C3CCC3)c(C)c2c(=O)o1	ELISA	HFF	-	EC50	>100 µM
Nc1nc2c(ncn2COC(CO)CO)c(=O)[nH]1	hybridisation	-	TOWNE	EC50	3.7 µM
CCc1nccn1-c1nc(NC2CCc3c(F)cccc32)nc(C)c1[N+](=O)[O-]	-	-	-	EC50	0.25 µM
Nc1ncnc2c1c(Br)cn2COCCO	-	-	TOWNE	EC50	1.6 µM
C[C@H]1O[C@@H](n2c(Cl)nc3cc(Cl)c(Cl)cc32)[C@H](O)C1O	plaque count	HFF	Isolate D10 (D344E mutation)	EC50	3.1 µM
CC(C)Oc1ccccc1CNC(=O)c1ccc2cnccc2n1	plaque count	HS68	AD169	EC50	0.02 µM
COCC(C)Nc1nc(C)c([N+](=O)[O-])c(-n2ccnc2)n1	-	-	-	EC50	0.35 µM
Nc1ncnc2c1ncn2C[C@@H](CO)OCP(=O)(O)O	hybridisation	HEL	AD169	EC50	0.05 µM
Nc1nc2cc(Cl)c(Cl)cc2n1[C@H]1C[C@H](O)[C@@H](CO)O1	virus yield	HFF	TOWNE	EC90	3.8 µM
O[C@@H]1[C@H](O)[C@H]2Cn3nnc4ccc(=S)n(c43)[C@@H]1O2	-	Huh7	-	EC90	10 µM
OC[C@H]1O[C@@H](n2cnc3cnnnc32)[C@H](O)[C@@H]1O	plaque count	HFF	-	EC50	40 µM
Nc1nc2c(ncn2C=C2CC2CO)c(=O)[nH]1	plaque count	-	VR4990 (ganciclovir-resistant)	EC90	2.6 µM
NNc1nnnc2c1ncn2[C@@H]1O[C@H](CO)[C@@H](O)[C@H]1O	plaque count	HFF	-	EC50	>100 µM
CCCCCCCCC#Cc1cn(S(=O)(=O)c2ccc(C)cc2)c(=O)[nH]c1=O	cytopathic effect	HEL	AD169	EC50	>80 µM
COc1cccc(N2CCN(C3=Nc4c(F)cccc4[C@H](CC(=O)O)N3c3cc(C(F)(F)F)ccc3OC)CC2)c1	plaque count	-	Clinical isolate 17	EC50	0.0009 µM
CCCCC#Cc1c[nH]c(=O)[nH]c1=O	cytopathic effect	HEL	AD169	EC50	>400 µM
CCC(C)Nc1ccc(Oc2ccc(OC)cc2)cc1	plaque count	-	AD169	EC50	58 µM
Nc1nc2c(ncn2COC(CO)CO)c(=O)[nH]1	plaque count	HFF	CLEGG	EC50	1 µM
CCCCc1cc2cnc(=O)[nH]c2o1	cytopathic effect	HEL	DAVIS	EC50	>400 µM
CO[C@@H]1Cc2ccccc2[C@@H]1Nc1nc(C)c([N+](=O)[O-])c(-n2ccnc2)n1	-	-	-	EC50	0.11 µM
Nc1nc2c(ncn2C=C2CC2CO)c(=O)[nH]1	plaque count	HFF	C9208/3-3-1	EC50	6.9 µM
Nc1nc2c(ncn2C[C@]2(CO)C[C@H]2CO)c(=O)[nH]1	plaque count	MRC-5	AD169	EC50	9.2 µg/mL
CO[C@H](CO)[C@@H](O)CCn1cc(C)c(=O)[nH]c1=O	cytopathic effect	HEL	DAVIS	EC50	>400 µg/mL
Nc1nc2c(ncn2[C@H]2C=C[C@@H](CO)[C@H](O)C2)c(=O)[nH]1	-	-	LY9990	EC50	0.79 µg/mL
Cc1cn([C@H]2C[C@H](O)[C@]3(CO)C[C@H]23)c(=O)[nH]c1=O	plaque count	-	-	EC50	>20 µg/mL
Cc1cccc2nc(Nc3c(Cl)cccc3Cl)oc(=O)c12	ELISA	HFF	-	EC50	>100 µM
CN(C)c1ccc(/C=N/Nc2nc(-c3ccc(F)cc3)cs2)cc1	cytopathic effect	Human foreskin fibroblasts	AD169	EC90	>300 µM
O=c1[nH]c(=O)n(C2C[C@H](CO)[C@@H](CO)C2)cc1I	-	HEL	DAVIS	EC50	>100 µg/mL
CCC(C)Nc1ccc(Oc2ccc(O)c(F)c2)cc1	plaque count	-	AD169	EC50	15 µM
CCCCN1C(=O)c2ccccc2N(CCc2ccccc2)S1(=O)=O	plaque count	MRC-5	AD169	EC50	19.1 µM
O=c1[nH]cnc2c1ncn2C1C[C@H](CO)[C@@H](CO)C1	-	HEL	DAVIS	EC50	>100 µg/mL
OC[C@H]1O[C@@H](n2cnc3cc(Cl)c(Cl)cc32)C[C@@H]1O	plaque count	HFF	TOWNE	EC50	>100 µM
Cc1cn(CC[C@H](O)CCO)c(=O)[nH]c1=O	cytopathic effect	HEL	DAVIS	EC50	>400 µg/mL
Nc1nc2c(ncn2COC(CO)CO)c(=O)[nH]1	plaque count	HFF	AD169	EC90	19 µM
CCCOC1=NS(=O)(=O)N(Cc2ccc(Cl)cc2)c2ccccc21	plaque count	MRC-5	AD169	EC50	2.7 µM
Nc1nc2c(ncn2/C=C2/[C@H](CO)C2(F)F)c(=O)[nH]1	-	HFF	-	EC50	>100 µM
COC(=O)[C@H](C)Nc1nc2ccc(NC(=O)OC(C)(C)C)c(C)c2c(=O)o1	ELISA	HFF	-	EC50	100 µM
CCCN(C)c1ccc(Oc2ccc(O)cc2)cc1	plaque count	-	AD169	EC50	3.6 µM
Cc1nc(N(C)c2ccccc2)nc(-n2ccnc2C)c1[N+](=O)[O-]	-	-	-	EC50	~1 µM
Nc1ccn(CC[C@H](O)CCO)c(=O)n1	cytopathic effect	HEL	AD169	EC50	>400 µg/mL
COC(=O)[C@H](C)NP(=O)(OCC1C/C1=C/n1cnc2c(NC3CC3)nc(N)nc21)Oc1ccccc1	cytopathic effect	HFF	AD169	EC50	0.9 µM
CNc1cc(=O)n2c3c1nnn3C[C@H]1O[C@@H]2[C@H](O)[C@@H]1O	-	Huh7	-	EC90	7.4 µM
CCc1nccn1-c1nc(NC2CCc3cc(F)c(F)cc32)nc(C)c1[N+](=O)[O-]	-	-	-	EC50	0.18 µM
COC(=O)/C1=C/CC[C@](C)(O)[C@@H]2CC[C@@](C)(O2)C2C(=O)C(=C(C)[C@H]2O)CC1	-	HEL	-	EC50	20 µg/mL
Nc1nc2c(ncn2COC(CO)CO)c(=O)[nH]1	plaque count	WI-38	TOWNE	EC50	1 µM
CCCCCCC#Cc1c[nH]c(=O)[nH]c1=O	cytopathic effect	HEL	DAVIS	EC50	>80 µM
Nc1nc(NC2CC2)c2ncn(C=C3CC3CO)c2n1	plaque count	HFF	C8706/13-1-1	EC50	7.3 µM
Nc1nc2c(ncn2COC(CO)CO)c(=O)[nH]1	virus yield	HFF	-	EC50	1.8 µM
COCCNc1cc(=O)n2c3c1nnn3C[C@H]1O[C@@H]2[C@H](O)[C@@H]1O	-	Huh7	-	EC90	>100 µM
Cn1cc(C(=O)NCc2ccc(Cl)cc2)c(=O)c2cc(CN3CCOCC3)ccc21	virus yield	HFF	DAVIS	EC50	0.8 µM
OC[C@H]1O[C@@H](n2c(Br)nc3cc(Cl)c(Cl)cc32)C[C@@H]1O	plaque count	HFF	TOWNE	EC50	35 µM
Nc1ncnc2c1ncn2/C=C1\[C@H](CO)C1(F)F	-	HFF	-	EC50	21 µM
CC(C)CN1C(=O)c2ccccc2N(Cc2ccc(Cl)c(Cl)c2)S1(=O)=O	plaque count	MRC-5	AD169	EC50	14.5 µM
Nc1ccn(C[C@H]2COP(=O)(O)CO2)c(=O)n1	plaque count	HEL	DAVIS	EC50	0.72 µM
CCCCCCCCC#Cc1c[nH]c(=O)[nH]c1=O	cytopathic effect	HEL	AD169	EC50	>400 µM
N#CC1C(c2ccc(Cl)cc2)Nc2c(ccn2Cc2ccccc2)S1(=O)=O	cytopathic effect	HEL	AD169	EC50	>5 µg/mL
OC[C@H]1O[C@@H](n2c(Br)nc3cc(Cl)c(Cl)cc32)[C@H](O)[C@@H]1O	plaque count	MRC-5	1038RA	EC50	6 µM
O=C(NCc1ccc(Cl)cc1)c1c[nH]c2ccc(CCCO)cc2c1=O	plaque count	-	AD169	EC50	0.2 µM
Nc1nccc2c1ncn2C[C@@H](CO)OCP(=O)(O)O	hybridisation	HEL	AD169	EC50	0.18 µM
CO[C@H](CO)[C@@H](O)CCn1ccc(N)nc1=O	cytopathic effect	HEL	AD169	EC50	>400 µg/mL
Cc1nc(NC2CCc3ccccc32)nc(-n2ccnc2C)c1[N+](=O)[O-]	-	-	-	EC50	0.02 µM
O=c1cc(NCCCO)c2nnn3c2n1[C@@H]1O[C@H](C3)[C@@H](O)[C@H]1O	-	Huh7	-	EC90	>100 µM
Cc1nc(N[C@@H]2c3ccccc3C[C@@H]2O)nc(-n2ccnc2C)c1[N+](=O)[O-]	-	-	-	EC50	0.3 µM
Oc1ccc(Sc2ccc(NC3CCCCCC3)cc2)cc1	plaque count	-	AD169	EC50	12.9 µM
OC[C@H]1O[C@@H](c2cc(Cl)nc3cc(Cl)c(Cl)cc23)C(O)C1O	plaque count	HFF	-	EC50	30 µM
O=c1c(Br)cc2nnn3c2n1[C@@H]1O[C@H](C3)[C@@H](O)[C@H]1O	-	Huh7	-	EC90	1.9 µM
CCN(C)c1ccc(Oc2ccc(O)cc2)cc1	plaque count	HFF	AD169	EC50	0.4–0.6 µM
CC(C)=CCn1c(=O)sc2c(=O)[nH]c(N)nc21	plaque count	-	TOWNE	EC50	6.8 µM
Cc1nc(NC2CCc3c(F)cccc32)nc(-n2ccnc2C)c1[N+](=O)[O-]	-	-	-	EC50	0.05 µM
OC[C@H]1O[C@@H](n2c(Cl)nc3cc(Cl)c(Cl)cc32)C[C@@H]1O	plaque count	HFF	TOWNE	EC50	20 µM

The first 10 rows once more:

{"structure": "N#CC1C(c2ccccc2)Nc2ccccc2S1(=O)=O", "read by": "cytopathic effect", "cells": "HEL", "strain or isolate": "AD169", "measure": "EC50", "value": "28 µg/mL"}
{"structure": "O=C(NCc1ccc(Cl)cc1)c1c[nH]c2c(F)cccc2c1=O", "read by": "plaque count", "strain or isolate": "ADI", "measure": "EC50", "value": "19 µM"}
{"structure": "O=C(NCc1ccc(Cl)cc1)c1c[nH]c2c(F)cccc2c1=O", "read by": "plaque count", "strain or isolate": "759rD100", "measure": "EC90", "value": "25.4 µM"}
{"structure": "COC(C)c1cn([C@H]2C[C@H](O)[C@@H](CO)O2)c(=O)[nH]c1=O", "read by": "cytopathic effect", "cells": "HFF", "strain or isolate": "AD169", "measure": "EC50", "value": "0.9 µM"}
{"structure": "CCCCCCCC#Cc1c[nH]c(=O)[nH]c1=O", "read by": "cytopathic effect", "cells": "HEL", "strain or isolate": "DAVIS", "measure": "EC50", "value": ">80 µM"}
{"structure": "N#CC1C(c2ccc(Cl)cc2)Nc2ccccc2S1(=O)=O", "read by": "cytopathic effect", "cells": "HEL", "strain or isolate": "DER530 (GCV CDV-resistant)", "measure": "EC50", "value": "5.6 µg/mL"}
{"structure": "CO[C@@H]1CCN(c2nc(C)c([N+](=O)[O-])c(-n3ccnc3)n2)C1", "measure": "EC50", "value": "0.28 µM"}
{"structure": "O=c1[nH]c(=O)n([C@@H]2C[C@H](CO)C[C@H]2CO)cc1I", "cells": "HEL", "strain or isolate": "DAVIS", "measure": "EC50", "value": ">100 µg/mL"}
{"structure": "Nc1ccn(C[C@@H](CO)OCP(=O)(O)O)c(=O)n1", "read by": "plaque count", "cells": "HEL", "strain or isolate": "DER648 (ganciclovir cidofovir-resistant)", "measure": "EC50", "value": "6.34 µM"}
{"structure": "CC(N=[N+]=[N-])c1cn([C@H]2C[C@H](O)[C@@H](CO)O2)c(=O)[nH]c1=O", "read by": "cytopathic effect", "cells": "HFF", "strain or isolate": "AD169", "measure": "EC50", "value": ">125 µM"}